Experimental data published in patent US20120101032A1, “NOVEL MACROCYCLIC INHIBITORS OF HEPATITIS C VIRUS REPLICATION” (priority 2010, published 2012).

Chains of the proteins cited; added tags and fusions are not shown. Residues count along the entry.
UniProt P27958, 1027-1657 limits assumed: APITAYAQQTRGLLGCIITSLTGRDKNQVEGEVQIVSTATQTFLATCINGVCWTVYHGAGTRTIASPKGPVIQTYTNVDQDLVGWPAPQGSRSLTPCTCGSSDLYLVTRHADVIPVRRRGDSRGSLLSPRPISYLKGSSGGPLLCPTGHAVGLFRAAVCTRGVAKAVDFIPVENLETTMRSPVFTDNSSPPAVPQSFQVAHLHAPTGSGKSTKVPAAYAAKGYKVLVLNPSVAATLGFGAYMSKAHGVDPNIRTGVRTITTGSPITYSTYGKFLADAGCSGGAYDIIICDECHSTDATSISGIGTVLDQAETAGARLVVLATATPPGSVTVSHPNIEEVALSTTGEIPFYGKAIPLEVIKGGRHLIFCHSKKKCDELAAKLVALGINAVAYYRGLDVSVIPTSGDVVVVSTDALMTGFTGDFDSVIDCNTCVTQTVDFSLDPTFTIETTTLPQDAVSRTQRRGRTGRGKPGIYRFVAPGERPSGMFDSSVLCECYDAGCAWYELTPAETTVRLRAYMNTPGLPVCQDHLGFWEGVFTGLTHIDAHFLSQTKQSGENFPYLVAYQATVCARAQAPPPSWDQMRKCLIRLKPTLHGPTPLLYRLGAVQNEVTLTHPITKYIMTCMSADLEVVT

Tests used:
hepatitis C replicon = hepatitis C replicon EC50 assay; assay type: cell-based, hepatitis C virus; details: tested form: HCl
NS3/NS4 complexes = NS3/NS4 complexes (Hepatitis C virus genotype 1a, UniProt P27958); details: NS3-NS4 activity; 23° C., pH 7.5, 25 μM NS4A peptide; tested form: HCl

CC(C)n1c(O[C@@H]2C[C@H]3C(=O)N[C@]4(C(=O)NS(=O)(=O)C5(C)CC5)C[C@H]4/C=C\CCCCC[C@H](N)C(=O)N3C2)nc2c(-c3nc(C4CCC4)cs3)cccc21
EC50 (hepatitis C replicon): > 0.1 µM | IC50 (NS3/NS4 complexes): < 0.01 µM
